Residue numbers refer to the chain shown, from its start. Human monoclonal antibodies against the spike receptor-binding domain (heavy:light variable regions). IC50 against pseudoviruses bearing the spike of naturally observed variants; lower = stronger; >10 µg/ml means not reached at the top dose. No active / inactive call. The stated detection limit is 0.0005 µg/ml; values near or below 0.001 µg/ml lie at the floor of the assay.

This is an account of results in the supplement of paper PMC9931576.

First the molecules themselves.
B1: BD56-1453 (protein)
chain 1: QVQLVQSGVEVKKPGASVKVSCKASGYTFTNFYIHWVRQAPGQGPEWMGIFNPTDGSRRYAQKFQGRVTMTGDTSTTTVYMELSSLRSEDTAVYYCARSMYTTSSEGYYYSYYLDVWGKGTTVTVSS
chain 2: QSALTQPASVSGSPGQSITISCTGTSSDVGVYNYVSWYQQHPGKAPKLMIYDVNKRPSGVSNRFSGSKSGNTASLTISGLQAEDEADYYCSSYTSSSIHEVFGGGTKLTVL
B2: BD56-1463 (protein)
chain 1: QVQLVQSGAEVKKPGASVKVSCKASGYTFTSYYMYWVRQAPGQGLEWMGIINPSGGDTRYAQKFQGRVTMTRDTSTSTVYMELSSLRSEDTAVFYCARSMYSTSSEGDYYSYYMDVWGEGTTVTVSS
chain 2: B1 chain 2 with V31T, Y34F, K44R, M49L, N54T, V60F, S96I, E100V, V101I
B3: BD56-1455 (protein)
chain 1: EVQLEESGGGLVQPGGSLRLSCAASGFIFGNYDMHWVRQTTGTDLEWVSIIGTAGDAYYPDSVKGRFTVSRDNAKNSLYLQMSSLRVGDTGVYYCARGRGGTYQEGPYFDYWGQGTLVTVSS
chain 2: DIQMTQSPSSLSASVGDRVTITCRASQTITNYLNWYQQKPGKAPKLLIYAASKLQSGVPSRFSGSGSGTDFTLTISSLQPEDFATYYCQQSYSIPPLTFGGGTKVEIK
B4: BD56-1461 (protein)
chain 1: EVQLVESGGGLVQPGGSLRLSCAASGIIVSRNYMTWVRQAPGKGLEWVSLIYPGGSTFYADSVKGRFTISRHNSENTLYLQMSSLRLEDTAVYYCARHPYNRPISWGQGTLVTVSS
chain 2: DIQMTQSPSSLSASVGDRVTITCQATQDILNYLNWYQQKPGKAPKVLIYDSSNLETGVPSRFSGSGSGTNFTFTISSLQPEDIATYYCQQYDNLPITFGQGTRLDIK
B5: BD56-1469 (protein)
chain 1: QVQLVESGGGLVKPGGSLRLSCAASGFMFSDFHMSWIRQAPGKGLEWISYIPSSSSYTNYADSVKGRFTISRDNAKNSMYLQMNSLRVEDTAVYYCARLQQIYCSGGSCYSGNYIDYWGQGTLVTVSS
chain 2: EIVMTQSPATLSVSPGERATLSCRASQSVTSNLAWYQQKPGQAPKLLIYGASTRATGIPARFSGGGSGTDFTLTISSLQSEDFAVYYCQQYDSWPGTFGQGTKLEIK
B6: BD56-1468 (protein)
chain 1: QVQLVQSGAEVKKPGASVKVSCKASGYTFTNYYIHWVRQAPGQGLEWMGIVNPSDGSTNYAQKSQGRVTMTRDTSTSTVYLELSSLTSGDTALYYCARSMYSTSSEGYFYYYYLDIWGTGTTVTVSS
chain 2: QSALTQPASVSGSPGQSITISCTGTNRDVGVYNYVSWYQQHPGQAPKLMMYDVGKRPSGVSSRFSGSKSVNTASLTISGLQAEDEADYYCSSWTSTNTQVVFGGGTRLTVL
B7: COV2-2353 (protein)
chain 1: EVQLVQSGAEVKKPGESLKISCKGFGYNFTNYWIGWVRQMPGKGLEWMGIIYPGDSETRNSPSFQGQVTISADKSMSTAYLQWSSLKASDTAMYYCARLGVSKYCSGGRCLSGGSNWFDPWGQGTLVTVSS
chain 2: not shown

One assay concerns the target SARS-CoV-2 Omicron BA.1 spike pseudovirus. Description: pseudovirus neutralization IC50; higher = weaker neutralization. The method, then:
(§1)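 Single-round VSV luciferase pseudovirus mixed with antibody dilutions for 1 h and put on Huh-7 cells for about a day; IC50 from the dose curve.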
Turning to B1, the “pseudovirus neutralization IC50” value was > 10 µg/mL.

With B2, the “pseudovirus neutralization IC50” value was 0.0108 µg/mL.

For B3, the “pseudovirus neutralization IC50” value is > 10 µg/mL.

In the case of B4, the “pseudovirus neutralization IC50” value was determined as 0.00255 µg/mL.

As to B5, the “pseudovirus neutralization IC50” value is 0.00241 µg/mL.

For B6, the “pseudovirus neutralization IC50” value was determined as 0.874 µg/mL.

For B7, the “pseudovirus neutralization IC50” value was > 10 µg/mL.

The target of a further assay is SARS-CoV-2 Omicron BA.2 spike pseudovirus. The description is as above. On the procedure: as §1
As to B1, the “pseudovirus neutralization IC50” value is 0.005 µg/mL.

As to B2, the “pseudovirus neutralization IC50” value was found to be 0.0155 µg/mL.

As for B3, the “pseudovirus neutralization IC50” value is > 10 µg/mL.

Consider B4, for which the “pseudovirus neutralization IC50” value came out at 0.00165 µg/mL.

For the molecule B5, the “pseudovirus neutralization IC50” value came out at 0.00124 µg/mL.

B6: the “pseudovirus neutralization IC50” value worked out at 0.0876 µg/mL.

For B7, the “pseudovirus neutralization IC50” value is > 10 µg/mL.

For the next assay, the target named is SARS-CoV-2 Omicron BA.2.75 spike pseudovirus. The assay is described as above. On the procedure: as §1
For the molecule B1, the “pseudovirus neutralization IC50” value is > 10 µg/mL.

Take B2: the “pseudovirus neutralization IC50” value is > 10 µg/mL.

Consider B3, for which the “pseudovirus neutralization IC50” value was > 10 µg/mL.

For the molecule B4, the “pseudovirus neutralization IC50” value came to 0.0167 µg/mL.

B5: the “pseudovirus neutralization IC50” value came to 0.00161 µg/mL.

Take B6: the “pseudovirus neutralization IC50” value is > 10 µg/mL.

Consider B7, for which the “pseudovirus neutralization IC50” value was > 10 µg/mL.

In the next assay the target is SARS-CoV-2 Omicron BA.5 spike pseudovirus. The description is as above. The method, then: as §1
Turning to B1, the “pseudovirus neutralization IC50” value amounted to 0.0228 µg/mL.

Take B2: the “pseudovirus neutralization IC50” value is 0.0365 µg/mL.

On to B3, for which the “pseudovirus neutralization IC50” value was > 10 µg/mL.

Regarding B4, the “pseudovirus neutralization IC50” value is 0.00456 µg/mL.

B5: the “pseudovirus neutralization IC50” value is > 10 µg/mL.

With B6, the “pseudovirus neutralization IC50” value is > 10 µg/mL.

On to B7, for which the “pseudovirus neutralization IC50” value is > 10 µg/mL.

For the next assay, the target named is SARS-CoV-2 Omicron BQ.1.1 spike pseudovirus. The description is as above. The method, then:
as §1
As to B1, the “pseudovirus neutralization IC50” value is > 10 µg/mL.

Take B2: the “pseudovirus neutralization IC50” value turned out to be 0.0498 µg/mL.

For the molecule B3, the “pseudovirus neutralization IC50” value is > 10 µg/mL.

As to B4, the “pseudovirus neutralization IC50” value came out at 0.763 µg/mL.

With B5, the “pseudovirus neutralization IC50” value was > 10 µg/mL.

As to B6, the “pseudovirus neutralization IC50” value was > 10 µg/mL.

B7: the “pseudovirus neutralization IC50” value is > 10 µg/mL.

A further assay deals with SARS-CoV-2 Omicron XBB spike pseudovirus. The assay is described as above. On the procedure: as §1
As to B1, the “pseudovirus neutralization IC50” value was > 10 µg/mL.

Take B2: the “pseudovirus neutralization IC50” value is > 10 µg/mL.

On to B3, for which the “pseudovirus neutralization IC50” value was > 10 µg/mL.

With B4, the “pseudovirus neutralization IC50” value turned out to be 0.142 µg/mL.

Consider B5, for which the “pseudovirus neutralization IC50” value is > 10 µg/mL.

Consider B6, for which the “pseudovirus neutralization IC50” value was > 10 µg/mL.

Consider B7, for which the “pseudovirus neutralization IC50” value is > 10 µg/mL.

The target in a further assay is SARS-CoV-2 early D614G spike pseudovirus. The description is as above. On the procedure: as §1
On to B1, for which the “pseudovirus neutralization IC50” value was 0.00527 µg/mL.

As for B2, the “pseudovirus neutralization IC50” value amounted to 0.00459 µg/mL.

As to B3, the “pseudovirus neutralization IC50” value was > 10 µg/mL.

On to B4, for which the “pseudovirus neutralization IC50” value is 0.00411 µg/mL.

Consider B5, for which the “pseudovirus neutralization IC50” value came to 0.00136 µg/mL.

For the molecule B6, the “pseudovirus neutralization IC50” value amounted to 0.00111 µg/mL.

For B7, the “pseudovirus neutralization IC50” value stood at 0.324 µg/mL.
